Anti-infective test results gathered from many reports (values: NIAID ChemDB through PubChem).

All rows: tests in culture

MIC50, MIC90 and the like: level of inhibition, or share of isolates inhibited. Rows are shuffled and stem from different studies. Two numbers with a dash give a range or band. An empty or dashed field is not shown. Inhibition is in % at the dose shown (toxicity tests: loss of growth or viability).

smiles,method,dose,endpoint,species,setting,strain or isolate,value
CC[C@H]1OC(=O)[C@H](C)[C@@H](O[C@H]2C[C@@](C)(OC)[C@@H](OC(C)=O)[C@H](C)O2)[C@H](C)[C@@H](O[C@@H]2O[C@H](C)C[C@H](N(C)C)[C@H]2OC(=O)NNC)C(C)(O)C[C@@H](C)/C(=N\OCCCC2CCCCC2)[C@H](C)[C@@H](O)[C@]1(C)O,-,-,MIC,Mycobacterium avium complex,-,20092 (clarithromycin-resistant),3.13 µg/mL
CCc1nc2cc(F)ccn2c1C(=O)NCc1ccc(N2C[C@H](C)N(c3ccc(OC(F)(F)F)cc3)C[C@H]2C)c(F)c1.Cl,fluorescence,0.016 µM,inhibition,Mycobacterium avium,-,-,85%
C[C@@H](O)[C@H]1C(=O)N2C(C(=O)O)=C(SCCN=CN)C[C@H]12,-,-,MIC,Mycobacterium fortuitum,-,1048,3.12 µg/mL
Cc1nc2ccc(Br)cn2c1C(=O)NCc1ccc(-c2ccc(Cl)cc2)cc1,fluorescence,-,MIC50,Mycobacterium ulcerans,-,-,0.001–0.01 µg/mL
[2H]c1c(C([2H])([2H])[2H])c([2H])n2c(C(=O)NCc3ccc(Oc4cccc(C(F)(F)F)c4)cc3)c(C)nc2c1[2H],fluorescence,0.23 µM,inhibition,Mycobacterium avium,-,-,85%
CCCCCCCCCCCCCCCCCOC(=O)NC(CCC(=O)O)(CCC(=O)O)CCC(=O)O,-,-,MIC,Mycobacterium marinum,-,ATCC 927,216 µg/mL
O=c1oc2ccc(Br)cc2c(=S)n1-c1ccc(Br)cc1,-,-,MIC,Mycobacterium kansasii,14 d,6509/96,4 µM
CC(C)N=C(N)/N=C(\N)NOCCCOc1cc(Cl)c(Cl)cc1Cl,-,-,MIC,Mycobacterium avium complex,-,1317,32 µg/mL
Nc1ccc(S(=O)(=O)c2ccc(N)cc2)cc1,-,-,MIC,Mycobacterium avium complex,-,ATCC49601,64 µg/mL
O=C(NNC(=O)c1ccncc1)Nc1ccc(Cl)c(C(F)(F)F)c1,broth dilution,-,MIC100,Mycobacterium avium,21 d,MY330/88,125 µM
CO[C@@]1(NC(=O)CSCC#N)C(=O)N2C(C(=O)O)=C(CSc3nnnn3C)CS[C@@H]21,-,-,MIC,Mycobacterium fortuitum,-,1045,50 µg/mL
CCCCCCCNC(=O)NNC(=O)c1ccncc1,broth dilution,-,MIC100,Mycobacterium kansasii,14 d,My 235/80,125 µM
CCCCCCCCCCCCCCCCCCOC(=O)NC(C)(CCC(=O)O)CCC(=O)O,-,-,MIC,Mycobacterium marinum,-,ATCC 927,138 µg/mL
CO[C@H]1/C=C/O[C@@]2(C)Oc3c(C)c(O)c4c(=O)c(c5oc6cc(N7CCN(CC(C)C)CC7)cc(=O)c6nc5c4c3=C2O)NC(=O)/C(C)=C\C=C\[C@H](C)[C@H](O)[C@@H](C)[C@@H](O)[C@@H](C)[C@H](OC(C)=O)[C@@H]1C,-,-,MBC,Mycobacterium ulcerans,-,Isolate 5155,0.025 µg/mL
O=C(NNC(=O)c1ccncc1)Nc1ccc(Br)cc1F,broth dilution,-,MIC100,Mycobacterium kansasii,7 d,My 235/80,>125 µM
CCCCCCCCCCCC(CCCCCCCCCCC)NC(=O)NC(CCC(=O)O)(CCC(=O)O)CCC(=O)O,-,-,MIC,Mycobacterium marinum,-,ATCC 927,424 µg/mL
Fc1ccc2c(NCc3ccc(Oc4cccc(C(F)(F)F)c4)cc3)ncnc2c1,luminescence,-,MIC50,Mycobacterium bovis BCG,-,-,>20 µM
Fc1cc(Br)ccc1Nc1nnc(-c2ccncc2)o1,broth dilution,-,MIC100,Mycobacterium kansasii,7 d,My 6509/96,>125 µM
Cc1ccc2oc(=S)n(-c3ccc(C(F)(F)F)cc3)c(=S)c2c1,-,-,MIC,Mycobacterium kansasii,21 d,6509/96,16 µM
CCc1nc2cc(C)c(Cl)cn2c1C(=O)NCc1ccc(N2CCN(c3ccc(OC(F)(F)F)cc3)[C@@H](C)C2)c(F)c1,fluorescence,0.035 µM,inhibition,Mycobacterium avium,-,-,85%
CC[C@H]1OC(=O)[C@H](C)[C@@H](O[C@H]2C[C@@](C)(OC)[C@@H](OC(C)=O)[C@H](C)O2)[C@H](C)[C@@H](O[C@@H]2O[C@H](C)C[C@H](N(C)C)[C@H]2OC(=O)NNC2CCCCC2)C(C)(O)C[C@@H](C)/C(=N\OCCCC2CCCCC2)[C@H](C)[C@@H](O)[C@]1(C)O,-,-,MIC,Mycobacterium avium complex,-,20039 (clarithromycin-susceptible),0.39 µg/mL
COc1ccc2oc(=O)n(-c3ccccc3)c(=S)c2c1,-,-,MIC,Mycobacterium kansasii,21 d,6509/96,16 µM
Cc1ccn2c(C(=O)NCc3ccc(C4CCN(C5CN(CC(F)(F)F)C5)CC4)c(F)c3)c(C)nc2c1,fluorescence,0.61 µM,inhibition,Mycobacterium avium,-,-,85%
c1ccc(-c2cc3cc(Nc4ncnc5ccccc45)ccc3o2)cc1,luminescence,-,MIC50,Mycobacterium bovis BCG,-,-,>20 µM
CCCCCCCCCCCCC(CCCCCCCCCCCC)OC(=O)NC(CCC(=O)O)(CCC(=O)O)CCC(=O)O,-,-,MIC,Mycobacterium chelonae,-,EO-P-1,71 µg/mL
CO[C@@]1(NC(=O)CCCC(N)C(=O)O)C(=O)N2C(C(=O)O)=C(COC(C)=O)CSC21,-,-,MIC,Mycobacterium fortuitum,-,1048,>100 µg/mL
FC(F)(F)c1cccc(Oc2ccc(CNc3ncnc4ccsc34)cc2)c1,luminescence,-,MIC50,Mycobacterium bovis BCG,-,-,>50 µM
Cc1nc2ccc(F)cn2c1C(=O)NCc1ccc(N2CCN(c3ccc(OC(F)(F)F)cc3)[C@@H](C)C2)cc1,fluorescence,0.015 µM,inhibition,Mycobacterium avium,-,-,85%
COc1ccc(Nc2nnc(-c3ccncc3)o2)cc1,broth dilution,-,MIC100,Mycobacterium kansasii,14 d,My 6509/96,>125 µM
Fc1ccc2oc(=S)n(-c3cccc(Cl)c3)c(=S)c2c1,-,-,MIC,Mycobacterium kansasii,14 d,6509/96,2 µM
CC1CN(c2ccc(CNC(=O)c3c(Cl)nc4ccccn34)cc2F)CC(C)O1,fluorescence,-,MIC50,Mycobacterium ulcerans,-,-,0.01–0.1 µg/mL
CO[C@H]1/C=C/O[C@@]2(C)Oc3c(C)c(O)c4c(O)c(c5c(c4c3C2=O)NC2(CCN(CC(C)C)CC2)N=5)=NC(=O)/C(C)=C\C=C\[C@H](C)[C@H](O)[C@@H](C)[C@@H](O)[C@@H](C)[C@H](OC(C)=O)[C@@H]1C,-,-,MIC,Mycobacterium avium intracellulare,-,9-Feb,0.5 µg/mL
COc1ccc2oc(=O)n(-c3ccc(F)cc3)c(=S)c2c1,-,-,MIC,Mycobacterium kansasii,14 d,My 235/80,16 µM
CO[C@@]1(NC(=O)C2SC(=C(C(N)=O)C(=O)[O-])S2)C(=O)N2C(C(=O)[O-])=C(CSc3nnnn3C)CS[C@@H]21,-,-,MIC,Mycobacterium fortuitum,-,1059,100 µg/mL
Cc1ccn2c(C(=O)NCc3ccc(N4CCC(c5ccc(OC(F)(F)F)cc5)CC4)c(Cl)c3)c(C)nc2c1.Cl,fluorescence,0.5 µM,inhibition,Mycobacterium avium,-,-,85%
Cc1ccc2oc(=O)n(-c3cccc(Cl)c3)c(=S)c2c1,-,-,MIC,Mycobacterium kansasii,14 d,6509/96,2 µM
Cc1ccc2nc(C)c(C(=O)NCc3ccc(OC(F)(F)F)cc3)n2c1,fluorescence,-,MIC50,Mycobacterium ulcerans,-,-,0.01–0.1 µg/mL
COc1ccn2nc(C)c(C(=O)NCc3ccc(N4CCN(c5ccc(OC(F)(F)F)cc5)[C@@H](C)C4)cc3)c2c1,fluorescence,0.0058 µM,inhibition,Mycobacterium avium,-,-,85%
Cc1ccc2ncc(C(=O)NCc3ccc(N4CCSCC4)cc3)n2c1,fluorescence,-,MIC50,Mycobacterium ulcerans,-,-,1–10 µg/mL
CCCCCCCCCCCCCC(=O)NC(CCC(=O)O)(CCC(=O)O)CCC(=O)O,-,-,MIC,Mycobacterium marinum,-,ATCC 927,288 µg/mL
CCCCCCCCCCNNC(=O)O[C@H]1[C@H](O[C@@H]2[C@@H](C)[C@H](O[C@H]3C[C@@](C)(OC)[C@@H](OC(C)=O)[C@H](C)O3)[C@@H](C)C(=O)O[C@H](CC)[C@@](C)(O)[C@H](O)[C@@H](C)/C(=N/OCCCC3CCCCC3)[C@H](C)CC2(C)O)O[C@H](C)C[C@@H]1N(C)C,-,-,MIC,Mycobacterium avium complex,-,20039 (clarithromycin-susceptible),>50 µg/mL
COc1ccc2oc(=O)n(-c3ccc(Cl)c(Cl)c3)c(=S)c2c1,-,-,MIC,Mycobacterium kansasii,21 d,My 235/80,62.5 µM
CCCCCCCCCCCCO/N=C1\[C@H](C)CC(C)(O)[C@H](O[C@@H]2O[C@H](C)C[C@H](N(C)C)[C@H]2O)[C@@H](C)[C@H](OC2C[C@@](C)(OC)[C@@H](O)[C@H](C)O2)[C@@H](C)C(=O)O[C@H](CC)[C@@](C)(O)[C@H](O)[C@H]1C,-,-,MIC,Mycobacterium avium complex,-,20092 (clarithromycin-resistant),25 µg/mL
COc1ccc2oc(=S)n(-c3cccc(Cl)c3)c(=S)c2c1,-,-,MIC,Mycobacterium kansasii,21 d,6509/96,8 µM
CC[C@H]1OC(=O)[C@H](C)[C@@H](OC2C[C@@](C)(OC)[C@@H](O)[C@H](C)O2)[C@H](C)[C@@H](O[C@@H]2O[C@H](C)C[C@H](N(C)C)[C@H]2O)C(C)(OC)C[C@@H](C)/C(=N\OCCCOc2ccccc2)[C@H](C)[C@@H](O)[C@]1(C)O,-,-,MIC,Mycobacterium avium complex,-,20092 (clarithromycin-resistant),12.5 µg/mL
Fc1ccc2c(Nc3ccc(N4CCCCC4)cc3)ncnc2c1,luminescence,-,MIC50,Mycobacterium bovis BCG,-,-,>50 µM
Cc1ccc(-n2c(=S)oc3ccc(Br)cc3c2=S)cc1,-,-,MIC,Mycobacterium kansasii,14 d,6509/96,4 µM
CCCCCCCCCCCCCCCCCCCCCCOC(=O)NC(C)(CCC(=O)O)CCC(=O)O,-,-,MIC,Mycobacterium marinum,-,ATCC 927,394 µg/mL
CC[C@H]1OC(=O)[C@H](C)[C@@H](O[C@H]2C[C@@](C)(OC)[C@@H](OC(C)=O)[C@H](C)O2)[C@H](C)[C@@H](O[C@@H]2O[C@H](C)C[C@H](N(C)C)[C@H]2O)C(C)(O)C[C@@H](C)/C(=N\OCCc2ccccc2)[C@H](C)[C@@H](O)[C@]1(C)O,-,-,MIC,Mycobacterium avium complex,-,20092 (clarithromycin-resistant),12.5 µg/mL
Fc1ccc2c(Nc3ccc(Oc4ccc(C(F)(F)F)cc4)cc3)nc(C(F)(F)F)nc2c1,luminescence,-,MIC50,Mycobacterium bovis BCG,-,-,>50 µM
[2H]c1c(C([2H])([2H])[2H])c([2H])n2c(C(=O)NCc3ccc(-c4ccc(C(F)(F)F)cc4)cc3)c(C)nc2c1[2H],fluorescence,0.0028 µM,inhibition,Mycobacterium avium,-,-,85%
CO[C@@]1(NC(=O)CCCC(N)C(=O)O)C(=O)N2C(C(=O)O)=C(COC(N)=O)CSC21,-,-,MIC,Mycobacterium fortuitum,-,1048,>100 µg/mL
Fc1cc(Nc2nnc(-c3ccncc3)o2)ccc1Br,broth dilution,-,MIC100,Mycobacterium kansasii,14 d,My 6509/96,>125 µM
CC[C@H]1OC(=O)[C@H](C)[C@@H](OC2C[C@@](C)(OC)[C@@H](O)[C@H](C)O2)[C@H](C)[C@@H](O[C@@H]2O[C@H](C)C[C@H](N(C)C)[C@H]2O)C(C)(O)C[C@@H](C)/C(=N\OCCN(C)c2ccccc2)[C@H](C)[C@@H](O)[C@]1(C)O,-,-,MIC,Mycobacterium avium complex,-,20096 (clarithromycin-resistant),25 µg/mL
CCCCCCCCCCCCCCCCCCCC(=O)NC(CCC(=O)O)(CCC(=O)O)CCC(=O)O,-,-,MIC,Mycobacterium abscessus,-,AAy-P-1,3.4 µg/mL
CCc1nc2ccc(Cl)cn2c1C(=O)NCc1ccc(N2CCOCC2)cc1,fluorescence,-,MIC50,Mycobacterium ulcerans,-,-,0.1–1 µg/mL

For reference, 3 entries again:

smiles | method | dose | endpoint | species | setting | strain or isolate | value
CCc1nc2cc(F)ccn2c1C(=O)NCc1ccc(N2C[C@H](C)N(c3ccc(OC(F)(F)F)cc3)C[C@H]2C)c(F)c1.Cl | fluorescence | 0.016 µM | inhibition | Mycobacterium avium | - | - | 85%
CO[C@@]1(NC(=O)CCCC(N)C(=O)O)C(=O)N2C(C(=O)O)=C(COC(C)=O)CSC21 | - | - | MIC | Mycobacterium fortuitum | - | 1048 | >100 µg/mL
Fc1ccc2c(Nc3ccc(Oc4ccc(C(F)(F)F)cc4)cc3)nc(C(F)(F)F)nc2c1 | luminescence | - | MIC50 | Mycobacterium bovis BCG | - | - | >50 µM